Tested on: C[S+](CC[C@H](N)C(=O)O)C[C@H]1O[C@@H](n2cnc3c(N)ncnc32)[C@H](O)[C@@H]1O
Test: purified protein
Conditions: 100 mM Tris-HCl, pH 8.0, 30 °C

Substance: AzeJ (Pseudomonas aeruginosa PAO1; F134Y)
- Km: 520 ± 250 µM
- kcat: 0.183 ± 0.0267 s⁻¹

Substance: AzeJ (Pseudomonas aeruginosa PAO1; Y175F)
- Km: 500 ± 350 µM
- kcat: 0.0167 ± 0.0033 s⁻¹

From publication PMC11794875, “Molecular basis for azetidine-2-carboxylic acid biosynthesis” (Nature Communications, 2025)
